# Literature values, collected in publication PMC7941644, “Identification and Development of Therapeutics for COVID-19” (ArXiv, 2021).
# B1: IFN-β: type I interferon, cytokine activating the innate immune response against viral infections (protein, UniProt P01574 22-187, looked up)
# Interferon beta: MSYNLLGFLQRSSNFQCQKLLWQLNGRLEYCLKDRMNFDIPEEIKQLQQFQKEDAALTIYEMLQNIFAIFRQDSSSTGWNETIVENLLANVYHQINHLKTVLEEKLEKEDFTRGKLMSSLHLKRYYGRILHYLKAKEYSHCAWTIVRVEILRNFYFINRLTGYLRN
# B2: IFN-β−1a: interferon beta-1a, administered subcutaneously in the Solidarity trial (protein, UniProt P01574 22-187, looked up)
# Interferon beta: B1 Interferon beta
# What was measured:
# COVID-19 = conditions: vs control, no placebo
# [1] = parameters: method as in PMID 32065831; conditions: subcutaneously administered as printed
Molecule,inhibition of coronavirus replication (SARS-CoV-1),rate ratio of in-hospital death (COVID-19),effect on 28-day mortality [1]
B1,strongly inhibit the replication,,
B2,,1.16,no effect on 28-day mortality
